{"source": "PubChem BioAssay AID1259414 (Drosophila RNAi Screening Center, 2018)", "purpose": "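Host factors increasing or decreasing Wolbachia levels in cultured fly cells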 (primary screen)", "cell system": "Drosophila JW18 cells infected with Wolbachia", "reagents": "long dsRNA against Drosophila genes, 0.25 µg dsRNA per well of a 384-well plate", "duration": "5 days", "challenge": "cells persistently infected with Wolbachia before knock-down; no added drug", "read-out": "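Imaged fluorescence in situ signal for Wolbachia 23S rRNA per DAPI-counted host cell, given as a robust z-score within each plate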", "direction": "Wolbachia per cell robust z: higher = more Wolbachia per host cell than the plate typical", "call rule": "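Active if absolute robust z reaches 1.5 in two or more of three replicates, leaving out multi- or no-target dsRNAs, genes unexpressed in JW18 and A1 wells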", "note": "The deposit covers about 24,000 reagents; this is an unselected part of those with a known target gene and a result. Over the whole deposit, about 1,210 (5%) are marked active. 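Inactive calls also include excluded dsRNAs with several or no targets, genes unexpressed in JW18, and well A1, regardless of score.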"}
{"predicted target": "Gdap1 (GeneID 38597)", "amplicon": "DRSC10437", "Wolbachia per cell robust z, rep 1": 1.4, "Wolbachia per cell robust z, rep 2": 0.552, "Wolbachia per cell robust z, rep 3": -0.491, "call": "inactive"}
{"predicted target": "Gdap1 (GeneID 38597)", "amplicon": "DRSC28286", "Wolbachia per cell robust z, rep 1": -0.735, "Wolbachia per cell robust z, rep 2": -2.76, "Wolbachia per cell robust z, rep 3": -0.163, "call": "inactive"}
{"predicted target": "CG8841 (GeneID 36336)", "amplicon": "DRSC07286", "Wolbachia per cell robust z, rep 1": -1.96, "Wolbachia per cell robust z, rep 2": 0.974, "Wolbachia per cell robust z, rep 3": -1.34, "call": "inactive"}
{"predicted target": "Sec71 (GeneID 34785)", "amplicon": "DRSC01893", "Wolbachia per cell robust z, rep 1": -2.12, "Wolbachia per cell robust z, rep 2": 0.262, "Wolbachia per cell robust z, rep 3": 0.418, "call": "inactive"}
{"predicted target": "CG33235 (GeneID 2768871)", "amplicon": "DRSC19641", "Wolbachia per cell robust z, rep 1": 0.169, "Wolbachia per cell robust z, rep 2": -1.85, "Wolbachia per cell robust z, rep 3": -0.565, "call": "inactive"}
{"predicted target": "TotF (GeneID 117461)", "amplicon": "DRSC02305", "Wolbachia per cell robust z, rep 1": -0.346, "Wolbachia per cell robust z, rep 2": 0.0502, "Wolbachia per cell robust z, rep 3": -0.0316, "call": "inactive"}
{"predicted target": "TotF (GeneID 117461)", "amplicon": "DRSC41492", "Wolbachia per cell robust z, rep 1": -0.537, "Wolbachia per cell robust z, rep 2": 0.109, "Wolbachia per cell robust z, rep 3": 0.713, "call": "inactive"}

Part of the list above, reformatted:
predicted target,amplicon,"Wolbachia per cell robust z, rep 1","Wolbachia per cell robust z, rep 2","Wolbachia per cell robust z, rep 3",call
CG33235 (GeneID 2768871),DRSC19641,0.169,-1.85,-0.565,inactive
TotF (GeneID 117461),DRSC02305,-0.346,0.0502,-0.0316,inactive
TotF (GeneID 117461),DRSC41492,-0.537,0.109,0.713,inactive

Additional records follow:
{"predicted target": "CG15561 (GeneID 43692)", "amplicon": "DRSC15100", "Wolbachia per cell robust z, rep 1": 0.521, "Wolbachia per cell robust z, rep 2": 0.564, "Wolbachia per cell robust z, rep 3": 0.844, "call": "inactive"}
{"predicted target": "CG15561 (GeneID 43692)", "amplicon": "DRSC24085", "Wolbachia per cell robust z, rep 1": -0.426, "Wolbachia per cell robust z, rep 2": 0.176, "Wolbachia per cell robust z, rep 3": -0.58, "call": "inactive"}
{"predicted target": "RhoGEF3 (GeneID 38050)", "amplicon": "DRSC08266", "Wolbachia per cell robust z, rep 1": -1.1, "Wolbachia per cell robust z, rep 2": -0.817, "Wolbachia per cell robust z, rep 3": -0.512, "call": "inactive"}
{"predicted target": "RhoGEF3 (GeneID 38050)", "amplicon": "DRSC08351", "Wolbachia per cell robust z, rep 1": -0.319, "Wolbachia per cell robust z, rep 2": 0.259, "Wolbachia per cell robust z, rep 3": -0.411, "call": "inactive"}
{"predicted target": "RhoGEF3 (GeneID 38050)", "amplicon": "DRSC08352", "Wolbachia per cell robust z, rep 1": 0.282, "Wolbachia per cell robust z, rep 2": 0.254, "Wolbachia per cell robust z, rep 3": -0.132, "call": "inactive"}
{"predicted target": "RhoGEF3 (GeneID 38050)", "amplicon": "DRSC08353", "Wolbachia per cell robust z, rep 1": -4.55, "Wolbachia per cell robust z, rep 2": -0.221, "Wolbachia per cell robust z, rep 3": -0.325, "call": "inactive"}
{"predicted target": "ImpL1 (GeneID 39499)", "amplicon": "DRSC11197", "Wolbachia per cell robust z, rep 1": -8.96, "Wolbachia per cell robust z, rep 2": -1.03, "Wolbachia per cell robust z, rep 3": 0.408, "call": "inactive"}
{"predicted target": "ImpL1 (GeneID 39499)", "amplicon": "DRSC28367", "Wolbachia per cell robust z, rep 1": 0.448, "Wolbachia per cell robust z, rep 2": 1.29, "Wolbachia per cell robust z, rep 3": 0.594, "call": "inactive"}
{"predicted target": "veil (GeneID 36968)", "amplicon": "DRSC06892", "Wolbachia per cell robust z, rep 1": -0.0605, "Wolbachia per cell robust z, rep 2": -1.2, "Wolbachia per cell robust z, rep 3": 0.91, "call": "inactive"}
{"predicted target": "veil (GeneID 36968)", "amplicon": "DRSC41414", "Wolbachia per cell robust z, rep 1": -0.137, "Wolbachia per cell robust z, rep 2": -2.16, "Wolbachia per cell robust z, rep 3": -0.932, "call": "inactive"}
